Experimental findings from paper PMC8556396, “Statin-mediated disruption of Rho GTPase prenylation and activity inhibits respiratory syncytial virus infection” (Communications Biology, 2021) are described below.

Structures are written as SMILES. Where a name gives a salt, the structure may show the parent alone.

The test system of this data set is RSV-GFP. The data set can be described thus: RSV-GFP infection of HEp-2 cells, automated imaging, dose-response. In kind it is cell-based, Respiratory syncytial virus. As to conditions: dose-response fit, HEp-2, RSV-GFP MOI 0.5. On the procedure:
HEp-2 cells were seeded to black, flat, microclear-bottom 96-well plates (655096, Greiner Bio-One) at a density of 5000 cells per well and incubated at 37 °C/5% CO2 overnight. The following morning, cells were washed twice with serum-free EMEM and treated with RSV-GFP (MOI 0.5) in a minimal volume of serum-free media for 90 min under frequent agitation. Unbound virus was then removed and replaced with fresh serum-containing EMEM. All drug additions were performed 2 h post-viral exposure, unless otherwise stated. Nuclei were stained with Hoechst 33342 (H3570, Thermo Fisher Scientific) (at a final concentration of 1 µg/mL) 48 h p.i. and imaging was performed using the Cellomics ArrayScan VTI HCS Reader at ×10 magnification (SPARC BioCentre, The Hospital for Sick Children, Toronto, ON).
Automated quantification of infection rates from fluorescent images were performed in CellProfiler (v2.2.0)[86]. Major steps in the image analysis pipeline included: (1) background subtraction and smoothing, (2) segmentation of nuclei, (3) segmentation of GFP-fluorescent area, (4) object masking, and (5) measurement of nuclear number, size, and intensity. Infection rate was quantified from the ratio of nuclei within GFP-fluorescent area to the total number of nuclei (Fig. 1b). This method of analysis accounts for in vitro syncytium formation induced by RSV, whereby a single infected cell may arise from the fusion of multiple cells. Mean nuclear fluorescent intensity and size was quantified as a measure of cell viability. […]

On to `C#C[C@]1(O)CC[C@H]2[C@@H]3CCC4=CC(=O)CC[C@@H]4[C@H]3CC[C@@]21C` [Norethindrone, 19-Norethindrone], for which the HillSlope worked out at 1.817.

In turn, `C[C@]12CC[C@@H]3c4ccc(O)cc4CC[C@H]3[C@@H]1CC[C@@H]2O` [Estradiol, 17β-Estradiol] showed a HillSlope of 3.809.

Regarding `CC(C)[C@@H]1NC(=O)[C@H](C)OC(=O)[C@@H](C(C)C)NC(=O)[C@@H](C(C)C)OC(=O)[C@H](C(C)C)NC(=O)[C@H](C)OC(=O)[C@@H](C(C)C)NC(=O)[C@@H](C(C)C)OC(=O)[C@H](C(C)C)NC(=O)[C@H](C)OC(=O)[C@@H](C(C)C)NC(=O)[C@@H](C(C)C)OC1=O` [Valinomycin], the HillSlope was determined as 10.96.

In turn, `C[C@H]1O[C@@H](O[C@H]2[C@@H](O)C[C@H](O[C@H]3[C@@H](O)C[C@H](O[C@H]4CC[C@@]5(C)[C@H](CC[C@@H]6[C@@H]5C[C@@H](O)[C@]5(C)[C@@H](C7=CC(=O)OC7)CC[C@]65O)C4)O[C@@H]3C)O[C@@H]2C)C[C@H](O)[C@@H]1O` [Digoxin] yielded a HillSlope of 1.404.

`C[C@H]1O[C@@H](O[C@H]2[C@@H](O)C[C@H](O[C@H]3[C@@H](O)C[C@H](O[C@H]4CC[C@@]5(C)[C@H](CC[C@@H]6[C@@H]5CC[C@]5(C)[C@@H](C7=CC(=O)OC7)CC[C@]65O)C4)O[C@@H]3C)O[C@@H]2C)C[C@H](O)[C@@H]1O` [Digitoxin] yielded a HillSlope of 1.229.

As to `CCC(C)(C)C(=O)O[C@H]1C[C@@H](C)C=C2C=C[C@H](C)[C@H](CC[C@@H]3C[C@@H](O)CC(=O)O3)[C@H]21` [Simvastatin, simvastatin], the HillSlope is 2.704.

Compound `CC(C)c1c(C(=O)Nc2ccccc2)c(-c2ccccc2)c(-c2ccc(F)cc2)n1CC[C@@H](O)C[C@@H](O)CC(=O)O` [Atorvastatin, Atorvastatin calcium salt trihydrate] gave a HillSlope of 2.112.

In the case of `O=c1cc(-c2ccccc2)oc2ccc(O)cc12` [6-Hydroxyflavone], the HillSlope came out at 1.874.

The compound `O=C(Nc1ccc([N+](=O)[O-])cc1Cl)c1cc(Cl)ccc1O` [Niclosamide] registered a HillSlope of 8.875.
